This is an account of results in patent US8884011B2, “Nucleotide analogues as precursor molecules for antivirals” (Centre National de la Recherche Scientifique-CNRS, priority 2006, dated 2014).

Where “and” joins values, the source holds several entries; their conditions need not be identical. Equal values may be shown once.

In this series the test system is K65R mutant RT of HIV-1. The series is classed as biochemical.
As for `C[C@@H](Cn1cnc2c(N)ncnc21)OCP(=O)(O)OP(=O)(O)OP(=O)(O)O` [PMPApp, PMPA diphosphate], the “Resistance = Selectivity mutant RT/Selectivity wild-type RT” value was 4.45 and 4.4.
On to `Nc1ncnc2c1ncn2CCOCP(O)(=S)OP(=O)(O)OP(=O)(O)O` (stereo not shown) [Compound 12, 9-[2-(diphosphorylthiophosphonomethoxy)ethyl]adenine], for which the “Resistance = Selectivity mutant RT/Selectivity wild-type RT” value was 2.8.
For the compound `Nc1ncnc2c1ncn2CCOCP(=O)(O)OP(=O)(O)OP(=O)(O)O` [PMEApp, PMEA diphosphate], the “Resistance = Selectivity mutant RT/Selectivity wild-type RT” value is 2.16 and 2.2.
Take `C[C@H](Cn1cnc2c(N)ncnc21)OCP(O)(=S)OP(=O)(O)OP(=O)(O)O` (stereo partly drawn) [Compound 13, (R)-9-[2-(pyrophosphoroxythiophosphonomethoxy)propyl]adenine]: the “Resistance = Selectivity mutant RT/Selectivity wild-type RT” value is recorded as 1.
